Experimental data published in patent USRE37781E1, “Substituted cyclic carbonyls and derivatives thereof useful as retroviral protease inhibitors” (DuPont Pharmaceuticals Company, priority 1991, dated 2002).

Assays:
[1] = biological target: single-chain tethered dimer of HIV protease (Human immunodeficiency virus 1, UniProt P04585); details: HIV protease inhibition
[2] = biological target: HIV protease (Human immunodeficiency virus type 1 group M subtype B, UniProt P04585)
[3] = test system: HIV-1 infected human CEM lymphcyte cells xenotransplanted in nude mice; assay: HIV-1/CEM Mouse Xenotransplant Animal Model; assay type: in vivo, nude (nu/nu) mice
[4] = test system: HIV-1 (RF) in MT-2 cells
[5] = test system: HIV-1 protease; assay: HIV-1 Protease Transgenic Mouse Model (cataract phenotype); details: Tg 72 mouse
[6] = read-out: HPLC K1, HPLC method, Table 2d

`O=C1N(Cc2ccco2)[C@H](Cc2ccccc2)[C@H](O)[C@@H](O)[C@@H](Cc2ccccc2)N1Cc1ccco1` was tested, and the Ki [1, 6] was less than 10 nM.

With `O=C1N(Cc2ccsc2)[C@H](Cc2ccccc2)[C@H](O)[C@@H](O)[C@@H](Cc2ccccc2)N1Cc1ccsc1` the Ki [1, 6] was less than 10 nM.

`N#Cc1cc(CN2C(=O)N(CC3CC3)[C@H](Cc3ccccc3)[C@H](O)[C@@H](O)[C@H]2Cc2ccccc2)ccc1F` gave a Ki ([1]; read-out: HPLC K1, Table 2d, HPLC method) of 10 to 1000 nM.

`O=C1N(CC2=CCSC2)[C@H](Cc2ccccc2)[C@H](O)[C@@H](O)[C@@H](Cc2ccccc2)N1CC1=CCSC1` showed a Ki [1, 6] of 10 to 1000 nM.

Work on `COCCOCCN1C(=O)N(CCOCCOC)[C@H](Cc2ccccc2)[C@H](O)[C@@H](O)[C@H]1Cc1ccccc1` yielded a Ki ([2]; Table 1a) greater than 1000 nM.

`O=C1N(Cc2cccc(O)c2)[C@H](Cc2ccccc2)[C@H](O)[C@@H](O)[C@@H](Cc2ccccc2)N1Cc1cccc(O)c1` was tested, and the IFA ([3]; 30 mg/kg bid ip) was 116.7% of the control untreated levels, the “p24 E1A” value ([3]; 30 mg/kg bid ip) was 61.5% of the control untreated levels and the IFA ([3]; 100 mg/kg bid ip) was 111.3% of the control untreated levels. For the same molecule, the “p24 E1A” value ([3]; 100 mg/kg bid ip) was 76.4% of the control untreated levels, the IFA ([3]; 300 mg/kg bid ip) was 51.5% of the control untreated levels and the “p24 E1A” value ([3]; 300 mg/kg bid ip) was 37.8% of the control untreated levels. For the same molecule, the Ki ([1]; class symbols) was less than 10 nM, the IC90 ([4]; HIV RNA assay, HIV-1 infected MT-2 cells, class symbols) was “+++ (+++=<10 μg/mL)” and the “Delay in Cataract (relative to control)” value ([5]; 50 mg/kg bid ip days 15-20/po days 21 & ff) was 3.6 days. The “Delay in Cataract (relative to control)” value ([5]; 80 mg/kg bid ip days 15-19/po days 20 & ff) was 6 days.

With `O=C1N(Cc2cccc(CO)c2)C(CCc2ccccc2)C(O)C(Cc2ccccc2)N1Cc1cccc(CO)c1` (centres unmarked) the Ki ([2]; Table 1e) was 10 to 1000 nM and the IC90 ([4]; Table 1e) was “+ (+=>100 μg/mL)”.

Like-named read-outs stand apart in the source and are kept apart here. The match of structure and compound is tentative.
